From publication PMC8130932

Target: RBD-VLP (Spycatcher-mi3 VLP-particles conjugated with Spytagged-RBD recombinant protein) (SARS-CoV-2)
Assay: ELISA

VHH72-Fc
IC50: 2 nM
